Data as given in PubChem BioAssay AID504761 (Drosophila RNAi Screening Center, 2011)

Assay: 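Fly genes whose silencing reduces dengue virus type 2 infection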 (primary screen)
Cell system: D.Mel-2 cells from Drosophila
Knock-down reagent: long dsRNA against Drosophila genes
Treatment: infection with dengue virus type 2; dose and infection time not stated
Measured: 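Per well on two replicate plates, imaging gave the percent of cells positive for viral envelope protein, ranked by infection, and a nuclear count of cells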
Direction: infection score: higher = more virus-infected cells; cell count: higher = more cells in the well
Rule for the call: 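Very low infection ranking in both replicate wells (chance probability at most 0.065), then a retest showing infection dropped 1.5-fold or more at p below 0.05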
Meaning of the calls: active = confirmed: knock-down lowers infection; inactive = not picked or not confirmed
The deposit covers about 22,000 reagents; this is a random part of those that have a named target and a result. Of all reagents, 116 (0.52%) are marked active. 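Calls depend on retest data that are not deposited; infection was ranked per plate without normalising between plates; the unit of the infection score is not given.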 Raw values vary from plate to plate and are shown uncorrected. Reagents against one gene are numbered here. A plus sign joins genes that one reagent is predicted to hit. Not stated in the record: the amount of reagent, the time to read-out.

gene	dsRNA no.	infection score, replicate 1	infection score, replicate 2	cell count, replicate 1	cell count, replicate 2	call
CG10527	1	17.9	33.1	6722	5400	inactive
CG10527	2	12.1	6.46	5640	6916	inactive
CG31245	1	2.05	7.35	6829	6694	inactive
GluRIIE	1	6.12	6.11	6063	5692	inactive
GluRIIE	2	7.53	6.97	6843	6962	inactive
Ndc80	1	11.4	15.7	6330	6251	inactive
Ndc80	2	10.2	9.85	4130	2750	inactive
S2P	1	8.44	8.08	6753	6720	inactive
S2P	2	3.43	2.23	5890	6635	inactive
Hrb98DE	1	10.6	9.28	4674	5387	inactive
Hrb98DE	2	0.94	1.83	4806	4922	inactive
CSN4	1	21.4	1.22	1751	490	inactive
CG14073	1	5.77	1.21	6932	7017	inactive
CG14073	2	4.26	4.7	6483	6430	inactive
CG13084	1	25.5	10.6	5490	6266	inactive
DCX-EMAP	1	1.74	2.07	5800	6338	inactive
DCX-EMAP	2	3.63	1.39	5752	6201	inactive
DCX-EMAP	3	8.01	20.6	7028	6520	inactive
RabX6	1	3.47	3.46	5557	6123	inactive
mRpS33	1	4.23	5.84	5701	5961	inactive
CG42232	1	42.1	33.8	4225	4994	inactive
CG42232	2	17.1	12.6	5550	5756	inactive
CG42232	3	13	22.1	5944	1667	inactive
CG43736 + CG33692 (retired record)	1	7.54	9.86	5739	6063	inactive
CG43736 + CG33692 (retired record)	2	15.4	17.6	6128	5715	inactive
CG43736 + CG33692 (retired record)	3	41.2	14.8	4943	6632	inactive
BNIP3	1	7.13	1.44	6256	6322	inactive
CG30159	1	14.8	21.2	6890	1826	inactive
CG30159	2	0.88	1.19	6217	6408	inactive
CR31824	1	1.89	1.71	5729	5390	inactive
CR31824	2	10.5	4.49	6290	6194	inactive
RpS28a	1	9.77	7.93	6395	6634	inactive
CG4641 (retired record)	1		7.07	354	4781	inactive
CG4641 (retired record)	2	1.38	3.14	6095	5961	inactive
CG9737	1	8.6	4.17	5677	6810	inactive
CG6403	1	4.79		1231	297	inactive
Cyp6w1	1	11.7	29.2	6678	5034	inactive
Nop60B	1	15.1	46.7	5751	4527	inactive
Naa60	1	0.71	1.32	5876	6352	inactive
Naa60	2	2.52	8.25	6103	6112	inactive

Records listed so far whose gene name begins with H or h (2):
gene	dsRNA no.	infection score, replicate 1	infection score, replicate 2	cell count, replicate 1	cell count, replicate 2	call
Hrb98DE	1	10.6	9.28	4674	5387	inactive
Hrb98DE	2	0.94	1.83	4806	4922	inactive
